Anti-infective test results gathered from many reports (values: NIAID ChemDB through PubChem).

All rows: whole-cell or culture tests; species: Mycobacterium tuberculosis

MIC50, MIC90 and the like: level of inhibition, or share of isolates inhibited. ECn is the concentration giving n% inhibition of infection, replication or growth. Blank or dashed fields: not listed here. Two numbers with a dash give a range or band. Percent inhibition refers to the dose given; in toxicity tests it is the harm to the cells. Neighbouring rows are from separate reports.

compound | tested at | method | strain or isolate | setting | measure | cell line | result
COc1cccc(CSc2ncnc3nc[nH]c23)c1 | - | - | H37Ra | - | MIC | - | >12.8 µg/mL
Cc1ccc(OCc2nnc3n2N(C(=O)c2ccncc2)C(c2ccccc2)=C(c2ccccc2)S3)cc1 | - | - | - | - | MIC | - | 100 µg/mL
COc1ccc2c(-c3ccccc3)cc(N3CCN(c4ccccc4)CC3)nc2n1 | - | - | H37Rv | - | MIC | - | >6.25 µg/mL
O=C(CCC(=O)c1ccccc1)NC[C@H]1CN(c2ccc(-n3cncn3)c(F)c2)C(=O)O1 | - | - | 10 clinical isolates resistant | - | MIC | - | 1–2 µg/mL
Cc1cccc(CSc2nc(=O)[nH]c3nc[nH]c23)c1 | - | - | H37Ra | - | MIC | - | >12.8 µg/mL
Cn1c2ccccc2c2cc(C=NNc3nc(-c4ccc(F)cc4)cs3)ccc21 | - | fluorescence | H37Rv | - | EC90 | - | 170 µM
O=c1nc(SCc2ccncc2)c2[nH]cnc2[nH]1 | - | - | H37Rv | - | MIC90 | - | >6.25 µg/mL
c1ccc(-c2cc3ccc(N4CCCCC4)nc3nc2N2CCCCC2)cc1 | - | - | H37Rv | - | MIC | VERO | 6.25 µg/mL
Cc1ccc(CSc2ccccn2)cc1 | - | - | H37Ra | - | MIC | - | >12.8 µg/mL
C=C1C(=O)O[C@H]2[C@H]1CC/C(C)=C/CC[C@@]1(C)O[C@@H]21 | - | - | - | - | MIC | - | 16 µg/mL
O=C(c1ccncc1)N1C(c2ccccc2)=C(c2ccccc2)Sc2nnc(Cc3ccccc3)n21 | - | - | - | - | MIC | - | 100 µg/mL
CCC(C)c1cc(C)cc(OC(=O)c2ccc(N)cc2O)c1 | - | - | H37Rv (p-aminosalicylate-resistant) | - | MIC | - | 100 µg/mL
C=CCNC(=S)N=Nc1c(O)n(C)c2ccc(C)cc12 | - | broth dilution / resazurin | H37Rv | - | EC50 | - | >100 µg/mL
COc1ccc(-c2csc(/C(C#N)=C/c3ccc(O)c(OC)c3)n2)cc1 | - | visual reading | Clinical isolate | - | MIC | - | 1 µg/mL
Oc1[nH]c2ccc(OC(F)(F)F)cc2c1N=NC(=S)Nc1ccccc1 | - | broth dilution / resazurin | H37Rv | - | EC50 | - | 14.2 µg/mL
C=C1C(=O)O[C@@H]2/C=C(\C)CC[C@H]3OC3(C)CC[C@@H]12 | - | - | - | - | MIC | - | 64 µg/mL
COc1c(N2CC3CCCNC3C2)c(F)cc2c(=O)c(C(=O)O)cn(C3CC3)c12 | - | broth dilution / visual reading | CSU87 | - | MIC | - | 0.06 µg/mL
NNC(=O)c1ccncc1 | - | - | 5178 | - | MIC | - | 0.04–0.05 µg/mL
Cc1cc(/C=C2\SC(=O)NC2=O)c(C)n1C1CCCCC1 | - | visual reading | H37Rv | - | MIC | - | >16 µg/mL
O=C(/C=C/C(=O)c1ccccc1)NC[C@H]1CN(c2ccc(N3CCCCC3)c(F)c2)C(=O)O1 | - | - | ATCC 27294 | - | MIC | - | >16 µg/mL
CCOC(=O)c1cc(C(=O)c2ccccc2)n2ccc(-c3ccncc3)cc12 | - | resazurin | H37Rv (ATCC 27294) | - | EC90 | - | >100 µg/mL
C[C@H](CC[C@H]1OC1(C)C)[C@H]1CC[C@@]2(C)[C@@H]3CC[C@H]4C(C)(C)[C@H](O)CC[C@@]45C[C@@]35CC[C@]12C | - | - | - | - | MIC | - | 8 µg/mL
CCN1CCN(c2cc(-c3ccccc3)c3ccc(=O)[nH]c3n2)CC1 | - | - | H37Rv | - | MIC | - | >6.25 µg/mL
Cn1c2ccccc2c2cc(C=NNc3nc(-c4ccc(Cl)cc4)cs3)ccc21 | - | fluorescence | H37Rv | - | MIC | - | >200 µM
COc1ccc2cc(-c3ccccc3)c(N3CCNCC3)nc2n1 | - | - | H37Rv | - | MIC | - | >6.25 µg/mL
CCn1cc(C(=O)O)c(=O)c2cc(F)c(N3CCNCC3)nc21 | - | - | 10 strains | - | MIC | - | 2 µg/mL
CCC[C@H]1C[C@@H]2CC[C@@H](O2)[C@H](C)C(=O)O[C@@H]([C@H](C)[C@H]2CC[C@@H](C[C@@H](CCC)N(C)C)O2)[C@H](C)[C@@H]2CC[C@@H](O2)[C@@H](C)C(=O)O1 | - | - | H37Rv | - | MIC | - | 0.55 µg/mL
Oc1c(N=NC(=S)Nc2ccc(Cl)cc2)c2cc(OC(F)(F)F)ccc2n1CN1CCOCC1 | - | broth dilution / resazurin | H37Rv | - | EC50 | - | 2.468 µg/mL
C=C1CC[C@H]2C(=C)CC[C@H]3C(=C)C(=O)O[C@@H]3[C@@H]12 | - | - | - | - | MIC | - | 8 µg/mL
CCn1cc(C(=O)O)c(=O)c2cc(F)c(N3CCNCC3)cc21 | - | - | 10 strains | - | MIC | - | 2 µg/mL
COc1ccc(-c2oc3cc(O)cc(O)c3c(=O)c2OC)cc1 | - | - | - | - | MIC | - | 50 µg/mL
Cn1c2ccccc2c2cc(C=NNc3nc(-c4cc5ccccc5oc4=O)cs3)ccc21 | - | fluorescence | H37Rv | - | MIC | - | >200 µM
Cc1ccc2c(c1)c(N=NC(=S)NC1CCCCC1)c(O)n2C | - | broth dilution / resazurin | H37Rv | - | EC50 | - | >100 µg/mL
ICC1Cc2c(c3ccccc3c3nc4ccccc4nc23)O1 | - | resazurin | ATCC 35338 | - | MIC | - | >100 µg/mL
CN1CCN(c2cc3c(cc2F)c(=O)c(C(=O)O)cn3-c2ccc(F)cc2)CC1 | - | - | 10 strains | - | MIC | - | 1 µg/mL
COc1cccc(CSc2ccncc2)c1 | - | - | H37Rv | - | MIC90 | - | >6.25 µg/mL
CO[C@H]1/C=C/O[C@@]2(C)Oc3c(C)c(O)c4c(=O)c(c5oc6cc(N7CCN(C(C)C)CC7)cc(=O)c6nc5c4c3=C2O)NC(=O)/C(C)=C\C=C\[C@H](C)[C@H](O)[C@@H](C)[C@@H](O)[C@@H](C)[C@H](OC(C)=O)[C@@H]1C | - | - | 20 strains | - | MIC90 | - | 0.07 µg/mL
CCC(C)OC(=O)N1CCN(c2nc3nc(Cl)ccc3cc2-c2ccccc2)CC1 | - | - | H37Rv | - | MIC | - | >6.25 µg/mL
CO[C@H]1/C=C/O[C@@]2(C)Oc3c(C)c(O)c4c(O)c(c(/C=N/N5CCN(C)CC5)c(O)c4c3C2=O)NC(=O)/C(C)=C\C=C\[C@H](C)[C@H](O)[C@@H](C)[C@@H](O)[C@@H](C)[C@H](OC(C)=O)[C@@H]1C | - | - | My 88 | 21 d | MIC | - | 2 µM
Cc1ccc(/C=C/C(=O)c2c(O)cc(C)oc2=O)cc1 | - | visual reading | H37Rv | - | MIC | - | 4 µg/mL
Cc1ccc2c(c1)c(N=NC(=S)Nc1cccc(Br)c1)c(O)n2C | - | broth dilution / resazurin | H37Rv | - | EC90 | - | >100 µg/mL
O=C1CSc2nnc(-c3ccccc3)n2N1C(=O)c1ccncc1 | - | - | - | - | MIC | - | 10 µg/mL
Clc1ccc2c(-c3ccccc3)cc(N3CCNCC3)nc2n1 | - | - | H37Rv | - | MIC | - | >6.25 µg/mL
Cc1ccc(N=Cc2ccc([N+](=O)[O-])s2)cc1[N+](=O)[O-] | - | visual reading | H37Rv | - | MIC | - | 8 µg/mL
NNC(=O)c1ccncc1 | - | - | Isolate 14 | - | MIC | - | 1 µg/mL
CC(=O)NC[C@H]1CN(c2ccc(-c3ccc(-c4nnnn4C)nc3)c(F)c2)C(=O)O1 | - | - | 67 clinical isolates | - | MIC50 | - | 0.0625 µg/mL
c1ccc(-c2cc3ccc(N4CCNCC4)nc3nc2N2CCCCC2)cc1 | 6.25 µg/mL | - | H37Rv | - | inhibition | - | 89%
CCCCC[C@H]1CCCCCCCCCC(=O)O[C@H]2[C@H](O)[C@@H](CO)OC(O[C@H]3[C@H](O1)O[C@H](C)C(O)(O)[C@@H]3O)[C@@H]2OC1O[C@@H](C)[C@H](OC(=O)C(C)CC)[C@@H](OC2O[C@@H](C)[C@H](O)[C@@H](O)[C@H]2O)[C@H]1OC(=O)C(C)CC | - | - | - | - | MIC | - | 16 µg/mL
Cc1nc2ccccc2nc1C(=O)/C=C/c1ccc([N+](=O)[O-])cc1 | - | resazurin | H37Rv | - | EC90 | - | >250 µM
Cc1ccc(NC(=S)N=Nc2c(O)[nH]c3ccc(C)cc23)cc1 | - | broth dilution / resazurin | H37Rv | - | EC90 | - | >100 µg/mL
Nc1ccc(OCc2nnc3n2N(C(=O)c2ccncc2)C(c2ccccc2)=C(c2ccccc2)S3)cc1 | - | - | - | - | MIC | - | 100 µg/mL
Cn1c2ccccc2c2cc(C=NNc3nc(-c4cccc(F)c4)cs3)ccc21 | - | fluorescence | H37Rv | - | EC90 | - | >200 µM
Cc1cc(=O)[nH]c(N/N=C/c2cc(Cl)cc(Cl)c2O)n1 | - | visual reading | H37Rv | - | MIC | - | 0.06 µg/mL
O=C1CSc2nnc(Cc3ccccc3)n2N1C(=O)c1ccncc1 | - | - | - | - | MIC | - | 100 µg/mL
Cc1ccc(C(=S)CCC(=O)NC[C@H]2CN(c3ccc(N4CCOCC4)c(F)c3)C(=O)O2)cc1 | - | - | 10 clinical isolates resistant | - | MIC | - | >16 µg/mL
Cn1c2ccccc2c2cc(C=NNc3nc(-c4ccccc4)cs3)ccc21 | - | fluorescence | H37Rv | - | MIC | - | 32 µM
NNC(=O)c1ccncc1 | - | - | 331/88 | 21 d | MIC | - | 1 µM
Cn1c2ccccc2c2cc(C=NNc3nc(-c4ccc(O)cc4)cs3)ccc21 | - | fluorescence | H37Rv | - | MIC | - | 37 µM
CN(C)c1ccc(/C=c2\s/c(=C/C(=O)c3ccccc3)[nH]c2=O)cc1 | - | visual reading | H37Rv | - | MIC | - | 8 µg/mL
CC1COc2c(N3CCN(C)CC3)c(F)cc3c(=O)c(C(=O)O)cn1c23 | - | - | 55 isolates | - | EC50 | - | <1 µg/mL
CC1=C2C(=CO[C@H](C)[C@H]2C)C(=O)C(C(=O)O)=C1O | 100 µg/mL | - | H37Rv | - | inhibition | - | 95%
COC(=O)[C@]1([C@@H]2CCC(=O)O2)CC(=O)c2c(cc3c(c2O)C2C=CC4(C3)C(=O)c3cc(C)cc(O)c3C(=O)[C@@]4(O)C2=O)O1 | - | - | H37Ra | - | MIC | - | 217 µM
COc1ccccc1CSc1ncccn1 | - | - | H37Ra | - | MIC | - | >12.8 µg/mL
Nc1ccc(OCc2nnc3n2N(C(=O)c2ccncc2)C(=O)CS3)cc1 | - | - | - | - | MIC | - | 100 µg/mL
CO[C@H]1/C=C/O[C@@]2(C)Oc3c(C)c(O)c4c(=O)c(c5oc6cc(N7CCN(CC(C)C)CC7)cc(=O)c6nc5c4c3=C2O)NC(=O)/C(C)=C\C=C\[C@H](C)[C@H](O)[C@@H](C)[C@@H](O)[C@@H](C)[C@H](OC(C)=O)[C@@H]1C | - | - | H37Rv | - | MIC | - | 0.017 µg/mL
C[C@@H]1CN(c2c(F)c(N)c3c(=O)c(C(=O)O)cn(C4CC4)c3c2F)C[C@H](C)N1 | - | - | Isolate 2 | - | MIC | - | 32 µg/mL
Cc1cccc(OC(=O)c2ccc(N)cc2O)c1 | - | - | H37Rv | - | MIC | - | 0.005 µg/mL
Nc1ccc2c(-c3ccccc3)cc(N3CCCCC3)nc2n1 | - | - | H37Rv | - | MIC | - | >6.25 µg/mL
CO[C@H]1/C=C/O[C@@]2(C)Oc3c(C)c(O)c4c(O)c(c(/C=N/N5CCN(C)CC5)c(O)c4c3C2=O)NC(=O)/C(C)=C\C=C\[C@H](C)[C@H](O)[C@@H](C)[C@@H](O)[C@@H](C)[C@H](OC(C)=O)[C@@H]1C | - | - | 20 strains | - | MIC90 | - | 1.25 µg/mL
COc1ccc(OC)c(Sc2nc(Cl)nc3nc[nH]c23)c1.O | - | - | H37Ra | - | MIC | - | >12.8 µg/mL
CC(=O)CCC1CC(=O)OC1(C)C | - | BACTEC | H37Rv | - | MIC | - | ≥12.8 µg/mL
CNC(=S)N=Nc1c(O)n(C)c2ccc(OC(F)(F)F)cc12 | - | broth dilution / resazurin | H37Rv | - | EC90 | - | >100 µg/mL

For reference, 11 entries again:

Cn1c2ccccc2c2cc(C=NNc3nc(-c4ccc(F)cc4)cs3)ccc21 ; method: fluorescence ; strain or isolate: H37Rv ; measure: EC90 ; result: 170 µM
C[C@@H]1CN(c2c(F)c(N)c3c(=O)c(C(=O)O)cn(C4CC4)c3c2F)C[C@H](C)N1 ; strain or isolate: Isolate 2 ; measure: MIC ; result: 32 µg/mL
CO[C@H]1/C=C/O[C@@]2(C)Oc3c(C)c(O)c4c(=O)c(c5oc6cc(N7CCN(CC(C)C)CC7)cc(=O)c6nc5c4c3=C2O)NC(=O)/C(C)=C\C=C\[C@H](C)[C@H](O)[C@@H](C)[C@@H](O)[C@@H](C)[C@H](OC(C)=O)[C@@H]1C ; strain or isolate: H37Rv ; measure: MIC ; result: 0.017 µg/mL
COc1ccc(-c2oc3cc(O)cc(O)c3c(=O)c2OC)cc1 ; measure: MIC ; result: 50 µg/mL
Cc1cc(=O)[nH]c(N/N=C/c2cc(Cl)cc(Cl)c2O)n1 ; method: visual reading ; strain or isolate: H37Rv ; measure: MIC ; result: 0.06 µg/mL
C=C1C(=O)O[C@H]2[C@H]1CC/C(C)=C/CC[C@@]1(C)O[C@@H]21 ; measure: MIC ; result: 16 µg/mL
CC(=O)NC[C@H]1CN(c2ccc(-c3ccc(-c4nnnn4C)nc3)c(F)c2)C(=O)O1 ; strain or isolate: 67 clinical isolates ; measure: MIC50 ; result: 0.0625 µg/mL
COc1ccc(OC)c(Sc2nc(Cl)nc3nc[nH]c23)c1.O ; strain or isolate: H37Ra ; measure: MIC ; result: >12.8 µg/mL
CC(=O)CCC1CC(=O)OC1(C)C ; method: BACTEC ; strain or isolate: H37Rv ; measure: MIC ; result: ≥12.8 µg/mL
CCOC(=O)c1cc(C(=O)c2ccccc2)n2ccc(-c3ccncc3)cc12 ; method: resazurin ; strain or isolate: H37Rv (ATCC 27294) ; measure: EC90 ; result: >100 µg/mL
O=c1nc(SCc2ccncc2)c2[nH]cnc2[nH]1 ; strain or isolate: H37Rv ; measure: MIC90 ; result: >6.25 µg/mL